# Bridge positions count the residues as written; N and C are the ends. Ends that are not written are not given here.
# How the values were obtained:
# Assay in all cases: Geometric mean of MICs and TI value
# Conditions in all cases: HC10/GM; 512 μM used as HC10 since HC10 > 256 μM
# [1] = system: G+ Bacteria; type: cell-based
# Description: (§1) The therapeutic potential of antimicrobial agents was valued based on their selectivity toward bacteria in reference to erythrocytes. The TI value was calculated from the results of antibacterial and haemolysis experiments of peptides using the following formula:TI value = HC10 / GMMICs.
# (§2) GM was the geometric mean of MICs against all tested bacteria.
# [2] = system: G− Bacteria; type: cell-based
# Description: as §1, §2
# [3] = system: Yeast; type: cell-based, Candida albicans
# Description: as §1, §2
Substance,"TI Value, G+ Bacteria [1]","TI Value, G− Bacteria [2]","TI Value, Yeast [3]"
"GLLRGVLGAGKKIVCGLSGRC (disulfide 15-21 (inferred)) [Peptide 2057-C, N-terminus modified analogue of Nigrosin-6VL]",4.00,8.00,2.00
"GLLSGVLGAGKKIVCGLSGR- [Peptide 1885-R, Rana Box modified analogue of Nigrosin-6VL]",4.00,11.31,2.00
H-GLLSGVLGAGKKIVGLSGR-OH [Peptide 1782-R],2.00,2.38,2.00
